Measured values from several laboratories, pooled; numbers as filed in NIAID ChemDB.

All rows: tests in culture; species: Encephalitozoon intestinalis

Blank or dashed fields: not listed here. A number after MIC or MFC names an inhibition level or a share of isolates. Lines come from different laboratories, so protocols vary. ECn: concentration that inhibits the pathogen or its effect by n%. Inhibition is in % at the dose shown (toxicity tests: loss of growth or viability).

CCCCc1ccc2nc(NC(=O)OC)[nH]c2c1 ; cell line: E6 ; read-out: EC50 ; result: 0.002 µg/mL
O=C(NC(=O)c1c(F)cccc1F)Nc1cc(Cl)c(OC(F)(F)C(F)C(F)(F)F)cc1Cl ; cell line: RK-13 ; read-out: inhibition ; dose: 2.5 µg/mL ; result: 32.2%
CO[C@@H]1[C@H](OC(=O)NC(=O)CCl)CC[C@]2(CO2)[C@H]1[C@@]1(C)O[C@@H]1CC=C(C)C ; read-out: EC50 ; result: ≥0.05 µM
CO[C@@H]1[C@H](OC(=O)NC(=O)CCl)CC[C@]2(CO2)[C@H]1[C@@]1(C)O[C@@H]1CC=C(C)C ; read-out: MIC50 ; result: 0.003 µg/mL
COC(=O)Nc1nc2ccc(C(=O)c3ccccc3)cc2[nH]1 ; cell line: E6 ; read-out: EC50 ; result: 0.002 µg/mL
O=C1N[C@@H]2C(c3cc4c(c(O)c31)OCO4)[C@@H](O)[C@H](O)[C@@H](O)[C@H]2O ; cell line: RK-13 ; read-out: EC50 ; result: 0.18 µM
CCn1nc(C(=O)O)c(=O)c2cc3c(cc21)OCO3 ; read-out: MIC50 ; result: 55 µM
COc1cc(NCc2cnc3nc(N)nc(N)c3c2C)cc(OC)c1 ; cell line: RK-13 ; read-out: inhibition ; dose: 1 µg/mL ; result: 70.4%
CCCOc1ccc2nc(NC(=O)OC)[nH]c2c1 ; cell line: E6 HOST CELLS ; read-out: EC50 ; result: 0.01 µg/mL
CC1COc2c(N3CCN(C)CC3)c(F)cc3c(=O)c(C(=O)O)cn1c23 ; read-out: MIC50 ; result: 2 µM
COC(=O)Nc1nc2ccc(C(=O)c3ccc(F)cc3)cc2[nH]1 ; cell line: E6 HOST CELLS ; read-out: EC50 ; result: 0.01 µg/mL
CCn1cc(C(=O)O)c(=O)c2cnc(N3CCNCC3)nc21 ; read-out: MIC50 ; result: >100 µM
CCCSc1ccc2nc(NC(=O)OC)[nH]c2c1 ; cell line: RK-13 ; read-out: inhibition ; dose: 0.1 µg/mL ; result: 85.2%
CCCS(=O)c1ccc2nc(NC(=O)OC)[nH]c2c1 ; cell line: E6 HOST CELLS ; read-out: EC50 ; result: >3 µg/mL
CO[C@H]1[C@@H](OC(=O)/C=C/C=C/C=C/C=C/C(=O)O)CC[C@@]2(CO2)[C@@H]1[C@@]1(C)O[C@@H]1CC=C(C)C ; read-out: MIC ; result: 0.000515 µg/mL
COC(=O)Nc1cc(N)c2c(c1)NC(=O)C(c1ccccc1)N2 ; cell line: RK-13 ; read-out: inhibition ; dose: 1 µg/mL ; result: 74.1%
CC1CCc2cc(F)cc3c(=O)c(C(=O)O)cn1c23 ; read-out: MIC50 ; result: 359 µM

A second listing of 2 rows from above:

SMILES,cell line,read-out,dose,result
COC(=O)Nc1nc2ccc(C(=O)c3ccc(F)cc3)cc2[nH]1,E6 HOST CELLS,EC50,,0.01 µg/mL
CCCSc1ccc2nc(NC(=O)OC)[nH]c2c1,RK-13,inhibition,0.1 µg/mL,85.2%